Test results from patent US20220323471A1 (priority 2019, published 2022).

test system: ZIKV-RVP; assay: Time-of-drug-addition, ZIKV-RVP in HT1080 cells; details: MOI 0.5, DGP 1 μM, Nanchangmycin 1 μM, NH4Cl 20 mM, 48 hours

Row | Structure (SMILES) | inhibition of infection versus time of drug addition
1 | COc1cc2c(OC3OC(C)C(O)C(O)C3O)c3c(c(-c4ccc5c(c4)OCO5)c2cc1OC)C(=O)OC3 (stereo not drawn) [DGP, 6-deoxyglucose-diphyllin] | stronger when the drug was added at earlier time points
2 | Cl.N [NH4Cl, ammonium chloride, reference compound] | stronger when the drug was added at earlier time points
3 | CO[C@H]1CC[C@@H](O[C@H]2C[C@H]([C@]3(C)CC[C@]4(C[C@H](O)[C@@H](C)[C@@H]([C@@H](C)/C=C(\C)C(=O)[C@H](C)C[C@H](C)C(=O)O)O4)O3)O[C@]3(O[C@@H]([C@H]4O[C@@](O)(CO)[C@H](C)C[C@@H]4C)C[C@@H]3C)[C@@H]2C)O[C@@H]1C [Nanchangmycin] | stronger when the drug was added at earlier time points
